Compound potency records, mixed from different reports. Data source: NIAID ChemDB in PubChem.

All rows: tests in culture; species: HIV-1; measure: fold resistance

An empty or dashed field is not shown. Fold resistance: result on the changed form divided by that on wild type. Rows are shuffled and stem from different studies.

| structure | method | strain or isolate | cell line | mutations | result |
|---|---|---|---|---|---|
| Nc1nc2c(ncn2[C@H]2CO[C@@H](CO)O2)c(=O)[nH]1 | cytopathic effect / XTT | - | MT-2 | RT-L74V | 3.75 |
| C[C@@H]1O[C@@H]2OCCC[C@@H]2[C@@H]1OC(=O)N[C@@H](Cc1ccccc1)[C@H](O)CN1C[C@H]2CCCC[C@H]2C[C@H]1C(=O)NC(C)(C)C | p24 | MM | PBMC | PR-L10I K43T M46I I54V L63P A71V V82A L90M Q92K | >42 |
| CC(C)=CCN1Cc2cc(Cl)cc3[nH]c(=S)n(c23)C[C@@H]1C | cytopathic effect | IIIB | CEM | RT-K103N | ≥312.5 |
| Nc1nc(NC2CC2)c2ncn([C@H]3C=C[C@@H](CO)C3)c2n1 | cytopathic effect / MTT | SW3-10125R | MT-4 | RT M41L A62V T69SSS insertion V75V/A M184I L210W T215Y | 3 |
| Nc1ncnc2c1ncn2CCOCP(=O)(O)O | p24 | LAI | MT-2 | RT-K65R | >4.3 |
| Cc1occc1C(=S)Nc1ccc(Cl)c(/C=N/OC(C)(C)C)c1 | cytopathic effect | IIIB | CEM | RT-K103N | 12.5 |
| CC(C)=CCN1Cc2cccc3[nH]c(=S)n(c23)C[C@@H]1C | syncytia | D34 | PBL | TIBO-resistant | 1250 |
| CN(C)C(=O)Oc1nsnc1-c1ccc(Cl)cc1Cl | cytopathic effect / MTT | IIIB-R (RT-Y181C) | MT-4 | RT-Y181C | >9.28 |
| Nc1ncnc2c1ncn2[C@@H]1O[C@H](CO)C[C@@H]1F | p24 | L214F(RT-L214F) | MT-2 | RT-L214F | 0.9 |
| CC(C)=CCOc1cc(NC(=S)c2ccsc2C)ccc1Cl | cytopathic effect | IIIB | CEM | RT-Y181C | 4.67 |
| COC(=O)[C@H](C)NP(=O)(OC[C@H]1O[C@@H](N2C(=O)NC(=O)C(C)(Br)C2OC)C[C@@H]1N=[N+]=[N-])Oc1ccc(OC)cc1 | RT activity | RTMF(RT-T215Y) | PBMC | RT-T215Y | 2.25 |
| Nc1ncnc2c1ncn2CCOCP(=O)(O)O | p24 | L214F(RT-L214F) | MT-2 | RT-L214F | 0.9 |
| CCc1c(Sc2ccccn2)n(COCc2ccccc2)c(=O)[nH]c1=O | cytopathic effect / XTT | NL4-3 | CEM + CEM-SS | RT-K103E | 19.4 |
| CC(C)=CCN1Cc2cc(Cl)cc3[nH]c(=S)n(c23)C[C@@H]1C | cytopathic effect / MTT | 13MB1 (TIBO-resistant RT L100I) | MT-4 | RT-L100I | 0 |
| O=c1[nH]cnc2c1ncn2[C@H]1CC[C@@H](CO)O1 | syncytia | IIIB-Nevirapine(1.0)(RT-Y181C) | CEM | RT-Y181C | 2 |
| CCCCN(CC)C(=O)Oc1nsnc1-c1c(Cl)cccc1Cl | cytopathic effect / MTT | IIIB-R (RT-Y181C) | MT-4 | RT-Y181C | >133 |
| Cc1c(Sc2ccccc2)n(COCCO)c(=O)[nH]c1=O | cytopathic effect / XTT | IIIB | CEM + CEM-SS | RT-Y181C | >6 |
| Nc1nc2c(ncn2[C@H]2CO[C@@H](CO)O2)c(=O)[nH]1 | cytopathic effect / MTT | - | MT-2 | RT-Q151M | 9.6 |
| COc1ccc2c(c1)N(C(=O)OC(C)C)[C@@H](CSC)C(=S)N2 | cytopathic effect | Recombinant | MT-4 | RT-V106A | 13 |
| Fc1ccccc1CCNC(=S)Nc1ccc(Br)cn1 | p24 | A17 | PBMC | RT-K103N Y181C | >35000 |
| Cc1cn([C@H]2C[C@H](N=[N+]=[N-])[C@@H](CO)O2)c(=O)[nH]c1=O | p24 | RT-M184V | PBMC | RT-E89G | 0.5 |
| Nc1nc(NC2CC2)c2ncn([C@H]3C=C[C@@H](CO)C3)c2n1 | cytopathic effect / XTT | Site-directed mutant | MT-2 | RT-K65R M184V | >8 |
| Cc1cc(O)cc(S(=O)(=O)c2cccc(N)c2C#N)c1 | β-galactosidase | - | HeLa + HELA CD4+ | RT-P236L | 1.11 |
| COc1ccc(OC)c(CCNC(=S)Nc2ccc(Br)cn2)c1 | p24 | A17 | PBMC | RT-Y181C | >140 |
| CCNc1cccnc1N1CCN(C(=O)c2cc3cc(OC)ccc3[nH]2)CC1 | syncytia | IIIB-TIBO(0.5)(RT-L100I) | CEM | RT-L100I | 65 |
| CC(C)[C@H](NC(=O)c1ccc2ccccc2n1)C(=O)N[C@@H](Cc1ccccc1)[C@H](O)CN1CC[C@@H](SCc2cccnc2)C[C@H]1C(=O)NC(C)(C)C | p24 | WT1906-R33 (PR M46I A71V I84A) | C8166 | PR-M46I A71V I84A | 326 |
| COC(=O)N[C@H](C(=O)N[C@@H](Cc1ccccc1)[C@@H](O)CN(Cc1ccc(-c2ccccn2)cc1)NC(=O)[C@@H](NC(=O)OC)C(C)(C)C)C(C)(C)C | β-galactosidase | Site-directed PR mutant 03 | HeLa | PR-L10I G48V L90M | 1.7 |
| CCN(C)C(=O)Oc1nsnc1-c1c(Cl)cccc1Cl | cytopathic effect / MTT | IIIB-R (RT-Y181C) | MT-4 | RT-Y181C | 151 |
| Cc1cn([C@H]2C[C@H](N=[N+]=[N-])[C@@H](CO)O2)c(=O)[nH]c1=O | cytopathic effect / MTT | IIIB MKC-442-resistant (RT Y181C) | MT-4 | RT-Y181C | 0.5 |
| C[C@@H](NC(=S)Nc1ccc(Br)cn1)c1cccc2ccccc12 | p24 | A17V(RT-K103N Y181C) | PBMC | RT-K103N Y181C | 287 |
| C=C(C)OC(=O)N1c2cc(Cl)ccc2NC(=S)C1(C)C | cytopathic effect | Recombinant | MT-4 | RT-V106A P225H | 125 |
| Cc1cn([C@H]2C[C@H](N=[N+]=[N-])[C@@H](CO)O2)c(=O)[nH]c1=O | p24 | M184V(RT-M184V) | MT-2 | RT-M184V | 0.6 |
| CC(C)(C)NC(=O)[C@@H]1C[C@@H]2CCCC[C@@H]2CN1C[C@@H](O)[C@H](Cc1ccccc1)NC(=O)[C@H](CC(N)=O)NC(=O)c1ccc2ccccc2n1 | p24 | NL4-3 | MT-4 | PR-M46I V82T I84V | 2 |
| Nc1nc2c(ncn2[C@H]2CO[C@@H](CO)O2)c(=O)[nH]1 | p24 | LAI | MT-2 | RT-D67N K70R T215Y K219Q | 2.1 |
| CC(C)=CCN1Cc2cccc3[nH]c(=S)n(c23)C[C@@H]1C | p24 | - | PBMC | RT-E89G | 3.6 |
| Cc1cn([C@@H]2O[C@H](CO[Si](C)(C)C(C)(C)C)C3(OS(=O)(=O)C=C3N)[C@H]2O[Si](C)(C)C(C)(C)C)c(=O)n(C)c1=O | syncytia | IIIB | CEM | RT-V106A | 10.45 |
| CC(C)=CCN1Cc2cc(Cl)cc3[nH]c(=O)n(c23)C[C@@H]1C | cytopathic effect | Recombinant | MT-4 | RT-V106A P225H | 73 |
| Cc1cc(S(N)(=O)=O)ccc1NC(=O)COc1ccccc1C(=O)c1cc(Cl)cc(C#N)c1 | - | HXB2 (RT V106I E138K P236L) Recombinant | - | RT-V106I E138K P236L | 175 |
| O=c1[nH]cnc2c1ncn2[C@H]1CC[C@@H](CO)O1 | p24 | - | PBMC | RT-L74V | 2.5 |
| Cn1c2ccccc2c2c1cc(C#N)c(=O)n2-c1ccc([N+](=O)[O-])cc1 | luciferase | Recombinant | HeLa | RT-M41L A62V S68N G112S V118I M184V | >1 |
| Cc1cn([C@H]2C[C@H](N=[N+]=[N-])[C@@H](CO)O2)c(=O)[nH]c1=O | p24 | LAI | MT-2 | RT-K65R | 3.3 |
| Nc1ccn([C@H]2CC[C@@H](CO)O2)c(=O)n1 | plaque count | HIVRTMC (RT D67N K70R L74V T215F K219Q) | - | RT-D67N K70R L74V T215F K219Q | 14.3 |
| S=C(NCCc1ccc(Br)cc1)Nc1ccc(Br)cn1 | p24 | A17 | PBMC | RT-Y181C | 14.3 |
| Nc1ccn([C@H]2CC[C@@H](CO)O2)c(=O)n1 | plaque count | HXB2 | HELA/CD4 + HELA CD4+ | RT-L74M | 2 |
| Cc1ccnc2c1NC(=O)c1cccnc1N2C1CC1 | plaque count | HXB2 | HT4 + HT4 LacZ-1 | RT-Y181C | 210 |
| CC(C)(C)NC(=O)[C@H]1N(C(=O)[C@@H](O)[C@H](Cc2ccccc2)NC(=O)[C@H](CC(N)=O)NC(=O)COc2cccc(Nc3ccccc3)c2)CSC1(C)C | - | IIIB | CEM + CEM-SS | PR-V32I L33F K45I F53L A71V I84V | 1 |
| O=c1[nH]cnc2c1ncn2[C@H]1CC[C@@H](CO)O1 | cytopathic effect / MTT | IIIB | MT-4 | RT-D67N K70R K172R | 0.812 |
| CN(C)C(=O)c1cnnn1[C@@H]1O[C@H](CO[Si](C)(C)C(C)(C)C)C2(OS(=O)(=O)C=C2N)[C@H]1O[Si](C)(C)C(C)(C)C | - | IIIB | CEM | RT-E138K | 10 |
| Nc1ccn([C@H]2CC[C@@H](CO)O2)c(=O)n1 | p24 | - | PBMC | RT-L74V | 3.83 |
| Nc1nc2c(ncn2[C@H]2CO[C@@H](CO)O2)c(=O)[nH]1 | p24 | 3TC-resistant (RT M184V) Clinical isolate | PBMC | RT-M184V | 1 |
| C[C@H](Cn1cnc2c(N)ncnc21)OCP(=O)(O)O | cytopathic effect / XTT | Site-directed mutant | MT-2 | RT-K65R M184V | 2.1 |
| Cc1ccc(NC(=S)N[C@H](C)c2cccc3ccccc23)nc1 | p24 | A17 | PBMC | RT-Y181C | 6 |
| CN(C)C(=O)Oc1nsnc1-c1cc(Cl)ccc1Cl | cytopathic effect / MTT | IIIB-R (RT-Y181C) | MT-4 | RT-Y181C | >300 |
| Nc1nc(N)c2ncn([C@H]3CO[C@@H](CO)O3)c2n1 | cytopathic effect / XTT | - | MT-2 | RT-F116Y Q151M T215Y | 8 |
| CC(C)(C)OC(=O)N[C@@H](Cc1ccccc1)[C@H](O)CNC[C@@H](O)[C@H](Cc1ccc(OCC(=O)N2CCOCC2)cc1)NC(=O)OC(C)(C)C | p24 | NL4-3 | MT-2 | PR-A71T | 1.25 |
| CCOCn1c(Cc2ccccc2)c(C(C)C)c(=O)[nH]c1=O | cytopathic effect | Recombinant | MT-4 | RT-V106A P225H | 195 |
| Cc1cc(Br)cc(S(=O)(=O)c2cccc(N)c2C#N)c1 | β-galactosidase | - | HeLa + HELA CD4+ | RT-E138K | 1.55 |
| Nc1ccn([C@H]2CC[C@@H](CO)O2)c(=O)n1 | syncytia | IIIB-BHAP)(0.1)(RT-L100I | CEM | RT-L100I | 1 |
| O=c1[nH]cnc2c1ncn2[C@H]1CC[C@@H](CO)O1 | p24 | HXB2D (RT-K65R) | PBMC | RT-K65R | 3.67 |
| C[C@@H](NC(=S)Nc1ccc(Cl)cn1)c1cccc2ccccc12 | p24 | RT multidrug-resistant (L74V V106A T215Y) | PBMC | RT-L74V V106A T215Y | 0.2 |
| CC(C)CN(C[C@@H](O)[C@H](Cc1ccccc1)NC(=O)[C@H](CC(N)=O)NC(=O)c1ccc2ccccc2n1)C(=O)NC(C)(C)C | p24 | NL4-3 | MT-4 | PR-M46I V82T I84V | 4 |
| CC(C)(O)c1cccc(CN2C(=O)N(Cc3cccc(C(C)(C)O)c3)[C@H](Cc3ccccc3)[C@H](O)[C@@H](O)[C@H]2Cc2ccccc2)c1 | p24 | HXB2 | MT-2/MT-4 + MT-2 | PR-V82F/184V | 260 |
| O=S(=O)(O)OC1C(OS(=O)(=O)O)C(OS(=O)(=O)O)C(OS(=O)(=O)O)C(OS(=O)(=O)O)C1OS(=O)(=O)O | cytopathic effect / MTT | NL4-3 | MT-4 | GP120-N323D | 1 |
| Nc1nc(NC2CC2)c2ncn([C@H]3C=C[C@@H](CO)C3)c2n1 | cytopathic effect / MTT | - | MT-2 | RT-Q151M A62V | 2.8 |

Repeating the first 3 entries:

structure	method	strain or isolate	cell line	mutations	result
Nc1nc2c(ncn2[C@H]2CO[C@@H](CO)O2)c(=O)[nH]1	cytopathic effect / XTT	-	MT-2	RT-L74V	3.75
C[C@@H]1O[C@@H]2OCCC[C@@H]2[C@@H]1OC(=O)N[C@@H](Cc1ccccc1)[C@H](O)CN1C[C@H]2CCCC[C@H]2C[C@H]1C(=O)NC(C)(C)C	p24	MM	PBMC	PR-L10I K43T M46I I54V L63P A71V V82A L90M Q92K	>42
CC(C)=CCN1Cc2cc(Cl)cc3[nH]c(=S)n(c23)C[C@@H]1C	cytopathic effect	IIIB	CEM	RT-K103N	≥312.5